The source of these data is PubChem BioAssay AID485341 (National Center for Advancing Translational Sciences (NCATS), 2010).

By UniProt entry, the sequences of proteins in these tests, tags left out. Where a name states a change or a piece, a line headed by the entry shows the natural chain unless it says otherwise.
UniProt P00811: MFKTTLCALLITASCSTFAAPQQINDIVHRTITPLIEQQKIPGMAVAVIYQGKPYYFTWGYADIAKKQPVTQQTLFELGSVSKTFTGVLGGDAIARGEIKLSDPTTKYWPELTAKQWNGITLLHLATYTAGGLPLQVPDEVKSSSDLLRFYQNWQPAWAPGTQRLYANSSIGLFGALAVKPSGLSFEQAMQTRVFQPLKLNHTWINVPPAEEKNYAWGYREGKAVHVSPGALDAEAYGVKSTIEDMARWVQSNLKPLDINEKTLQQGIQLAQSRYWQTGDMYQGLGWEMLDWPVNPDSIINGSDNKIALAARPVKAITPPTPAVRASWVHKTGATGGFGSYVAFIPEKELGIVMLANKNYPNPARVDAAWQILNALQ

Values joined by “and” are separate entries in the source; they are usually repeats but may differ in a detail not shown here. Equal values may be shown once. Only a part is listed here, and it is no random draw. Active and inactive are the calls of the source. Calls follow the shape of the dose curve; as a rule, active = well fitted inhibition curve with a large enough effect; inconclusive = small, poorly fitted or top-dose-only effect; inactive = no such curve, though single readings can be large or run the other way.

The target in this test is Beta-lactamase (Escherichia coli (strain K12)) (UniProt P00811). Briefly: qHTS Inhibitors of AmpC Beta-Lactamase (assay without detergent). Also: nearly all actives have a fitted effect of over 20% in size. As to conditions: AmpC nitrocefin hydrolysis, absorbance 480 nm, 0.0001% Triton; at 57.1 µM (top of the series) unless noted. Here is the method: NIH Molecular Libraries Probe Production Network [MLPCN] NIH Chemical Genomics Center [NCGC] Assay Provider: Professor Brian Shoichet, UCSF Assay Overview: This aggregation profiling approach exploits the sensitivity of aggregate formation to detergent. Inhibition of b-lactamase is measured in the presence and absence of 0.01% Triton X-100. This particular assay had the prescence of 0.01% Triton X-100. See Pubchem assay "Promiscuous and Specific Inhibitors of AmpC Beta-Lactamase (assay without detergent)" for related screen. Compounds that inhibit only in the absence of detergent are considered likely promiscuous aggregators. A screen of 1,030 compounds was performed in Brian Shoichet's lab in 96-well format. AmpC activity was measured by following the absorbance at 480 nm. Nitrocefin is a chromogenic substrate: while nitrocefin is yellow (lmax 390 nm), the product of its hydrolysis is red (lmax 486 nm, 17,000 M-1). AmpC beta lactamase was provided by Shoichet Lab, UCSF.
Buffer: 20 mM phosphate buffer, pH 7.0 Triton X-100: No Detergent screen: 0.0001%, Detergent screen: 0.01%. Reagents/Controls: Buffer in columns 3 and 4 as negative control (no enzyme). 5.3 nM AmpC in columns 1, 2, 5-48. Titration of UCSF compound 9 control (from 10 mM, then 1:2) pin-transferred to column 2. Column 1 is neutral (100% activity). Assay Steps: Six uL of reagents were dispensed to 1536-well Greiner black clear bottom plates. Compounds and controls (23 nL) were transferred via Kalypsys PinTool. The plates were incubated for 15 min at room temperature, and then 2 uL of 800 uM solution of nitrocefin was added to start the reaction. The plates were immediately transferred to and read every 20 seconds for 4 min on ViewLux (Perkin-Elmer) High-throughput CCD imager using 480 nm absorbance protocol. During dispense, reagent bottles were kept submerged into 4 deg C water bath. Keywords: NIH Roadmap, MLSCN, MLI, MLSMR, qHTS, NCGC, AmpC Beta-Lactamase, Aggregation
(In general: In qHTS, concentration-response curves come from the screen itself.)
In the case of `CN1CCCC(OC(=O)C(c2ccccc2)c2ccccc2)C1` (centres undefined), the activity change, negative = inhibition is inactive: 8.37%.
Turning to `Clc1ccc(Cl)c(NC2=NCC(CBr)S2)c1` (centres undefined), the activity change, negative = inhibition was inactive: -22.5%.
Next, `COc1ccccc1OP(=O)(Nc1ccc(C)cn1)Oc1ccccc1OC`: inactive: -7.39%; `Cc1ccc(OP(=O)(Nc2nccs2)Oc2ccc(C)cc2)cc1`: inactive: -33.9%; `CN(C(=O)Cc1ccc(Cl)c(Cl)c1)[C@H]1CCCC[C@H]1N1CCCC1`: inactive: 9.01%.
Next, `Cc1ccc(N/C(=N/P(=O)(N2CCOCC2)N2CCOCC2)N2CCOCC2)cc1`: inactive: -7.28%; `NC(=O)c1cc([N+](=O)[O-])cc([N+](=O)[O-])c1N`: inactive: -8.43%.
Consider `Oc1ccccc1CNc1ccccn1`, for which the activity change, negative = inhibition is inactive: -13.5%.
Next, `O=C(NC(Sc1ccncn1)C(Cl)(Cl)Cl)c1ccccc1` (centres undefined): inactive: -21.1%; `Cc1c2non([O-])c-2c(C)[n+](=O)[n+]1[O-]`: inactive: -26.4%.
Next, `Nc1cc(N)c2nonc2c1[N+](=O)[O-]`: inactive: -10.1%; `CC(C)CC(=O)NC(Sc1ccc(Cl)cc1)C(Cl)(Cl)Cl` (centres undefined): inactive: -12.2%; `Cc1cc(SC(NC(=O)c2ccc(F)cc2)C(Cl)(Cl)Cl)ncn1` (centres undefined): inactive: -11.5%.
Regarding `CCOP(=O)(Nc1ccccc1)OCC`, the activity change, negative = inhibition was inactive: -4.96% and inactive: -6.1%.
Take `Cc1ccc(NP(=O)(Oc2ccccc2F)Oc2ccccc2F)nc1`: the activity change, negative = inhibition was inactive: -12.3%.
Regarding `O=P(Nc1nc2ccc(Cl)cc2s1)(c1ccccc1)c1ccccc1`, the activity change, negative = inhibition was inactive: -36.2%.
Next, `CC(=O)Nc1ccc([As](=O)(O)O)cc1`: inactive: -1.02%; `O=C(O)c1ccccc1[As](=O)(O)O`: inactive: -21.8%; `Nc1cccc2ccc([As](=O)(O)O)cc12`: inactive: -14.4%.
Next, `CCN(N=Nc1nonc1N)c1nonc1N`: inactive: -17.1%.
`O=[N+]([O-])c1cc([N+](=O)[O-])c(CCN2CCOCC2)c([N+](=O)[O-])c1`: the activity change, negative = inhibition is inactive: -52.4%.
Next, `O=C(Nc1cc([As](=O)(O)O)ccc1O)c1ccccc1`: inactive: -13.1%; `O=C(O)CNc1ccc([As](=O)(O)O)cc1`: inactive: -6.66%.
Next, `O=[N+]([O-])c1cccc(NC2=NCC(CBr)S2)c1` (centres undefined): inactive: -13.4%.
Next, `O=[N+]([O-])c1ncn(CCn2ncnc2[N+](=O)[O-])n1`: inactive: -7.08%.
Consider `CC(C)(C)C(=O)NC(Sc1ccncn1)C(Cl)(Cl)Cl` (centres undefined), for which the activity change, negative = inhibition is inactive: -0.218%.
Next, `Cc1ccc(NP(=O)(Oc2ccccc2)Oc2ccccc2)nc1`: inactive: -30.5%; `CCc1nc2c(n1)c1c(non1O)c1c2no[n+]1[O-]`: inactive: -8.86%.
Next, `O=[N+]([O-])c1cc([N+](=O)[O-])c(CCNc2ccccc2)c([N+](=O)[O-])c1`: inactive: -46.1%.
For the compound `O=[N+]([O-])c1cccc2n[nH]nc12`, the activity change, negative = inhibition is inactive: 0.585%.
Next, `CC(=O)N1C2C3N(C(C)=O)C1C1N(C(C)=O)C(C(N1C(C)=O)N3C(C)=O)N2C(C)=O`: inactive: -6.59%; `COc1ccc(C2=NCC(CBr)S2)cc1` (centres undefined): inactive: -4.1%; `CC1CCN(C(=O)Oc2c(Cl)cc(Cl)c3cccnc23)CC1`: inactive: 139%.
Next, `CC(C)=N/N=C(\N)N[N+](=O)[O-]`: inactive: 6.7%; `CN(C)C(=O)OCCc1n(C)cc[n+]1C`: inactive: -14.3%; `CCN(/C(=N/P(=O)(N1CCOCC1)N1CCOCC1)N1CCOCC1)c1ccc(OC)cc1`: inactive: 0.723%.
For the compound `Nc1ccc([As](=O)(O)c2ccc(N)cc2)cc1`, the activity change, negative = inhibition was inactive: 75.8%.
Next, `C[N+]1=C2C=CC=CC=C2SC12C([N+](=O)[O-])=CC([N+](=O)[O-])=C[C-]2[N+](=O)[O-]` (centres undefined): inactive: -31.6%; `c1nnnn1CCn1cnnn1`: inactive: -21.8%.
Next, `CC(C)C(=O)NC(Sc1ccccc1)C(Cl)(Cl)Cl` (centres undefined): inactive: -9.87%; `O=P(Nc1nccs1)(c1ccccc1)c1ccccc1`: inactive: -16%.
Take `O=P(Nc1nc2ccccc2s1)(c1ccccc1)c1ccccc1`: the activity change, negative = inhibition is inactive: -20.8%.
Turning to `C[C@H]1OP(=O)(Oc2ccccc2)[C@H](O)[C@H](O)[C@H]1N=[N+]=[N-]` (some centres undefined), the activity change, negative = inhibition is inactive: -16.6%.
Next, `O=P(Nc1ccccn1)(c1ccc(Br)cc1)c1ccc(Br)cc1`: inactive: 5.64%.
Next, `CN(C)C1(CNC(=O)c2ccc(Cl)c(S(N)(=O)=O)c2)CCCCC1`: inactive: 1.49%; `O=C(OC1CN2CCC1CC2)c1cccc(Cl)c1` (centres undefined): inactive: -5.77%; `C(Cc1nn[nH]n1)Cc1nn[nH]n1`: inactive: 1.17%.
Next, `Nc1ccc([As](=O)(O)c2ccc([N+](=O)[O-])cc2)cc1`: inactive: -11.8%.
For `O=[As](O)(c1ccccc1)c1ccc(O)cc1`, the activity change, negative = inhibition was inactive: -2.83%.
Next, `O=[N+]([O-])c1ccc(O)c(/C=N/Nc2ccc([N+](=O)[O-])cc2[N+](=O)[O-])c1`: inactive: -25%.
Next, `O=[N+]([O-])c1ncn(CCn2cnc([N+](=O)[O-])n2)n1`: inactive: -3.23%; `CC(=O)NC(SC(=S)N(C)C)C(Cl)(Cl)Cl` (centres undefined): inactive: -10%.
Next, `c1ccc(-c2nn[nH]n2)c(-c2nn[nH]n2)c1`: inactive: 7.3%.
In the case of `CCOC(=O)NC(Sc1ccccc1)C(Cl)(Cl)Cl` (centres undefined), the activity change, negative = inhibition is inactive: -33.4%.
Consider `Cc1ccc(NP(=O)(Oc2cccc(C)c2)Oc2cccc(C)c2)nc1`, for which the activity change, negative = inhibition is inactive: -16.7%.
Next, `CCNC(=S)/N=C(\N)N[N+](=O)[O-]`: inactive: -12.9%; `O=C(NC1CCS(=O)(=O)C1)NP(=S)(Oc1ccccc1)Oc1ccccc1` (centres undefined): inactive: -28.5%; `CC(NC(=O)COC(=O)C(O)(c1ccccc1)c1ccccc1)c1ccccc1` (centres undefined): inactive: 23.1%.
Next, `Cc1ccccc1OP(=O)(Nc1ccccn1)Oc1ccccc1C`: inactive: 0.899%; `O=c1c2cc([N+](=O)[O-])ccc2[nH]c2c([N+](=O)[O-])cc([N+](=O)[O-])cc12`: inactive: -16.7%; `CN(C)C(=O)Oc1noc2ccccc12`: inactive: -10.3%.
Consider `O=C(OC1CN2CCC1CC2)c1ccccc1` (centres undefined), for which the activity change, negative = inhibition is inactive: -10.4%.
As to `CCC(=O)N1C2C3N(C(=O)CC)C1C1N(C(=O)CC)C(C(N1C(=O)CC)N3C(=O)CC)N2C(=O)CC`, the activity change, negative = inhibition was inactive: -3.85%.
`COC(=O)c1cc2c(s1)N=C(c1ccccc1)N(C)P2(=O)N1CCOCC1` (centres undefined): the activity change, negative = inhibition is inactive: -8.87%.
Next, `Cc1ccc(OP(=O)(Nc2ccccn2)Oc2ccc(C)cc2)cc1`: inactive: -8.35% [at 11.4 µM]; `CC(=O)NC(SC(=S)N(CC(C)C)CC(C)C)C(Cl)(Cl)Cl` (centres undefined): inactive: -15.6%.
Next, `CC(C)(C)C(=O)NC(Sc1ccccc1)C(Cl)(Cl)Cl` (centres undefined): inactive: -4.66%; `O=P1(Nc2nc3ccc(Cl)cc3s2)COc2ccccc2O1` (centres undefined): inactive: -18.6%.
Next, `CCOc1ccc(C2=NCC(CBr)S2)cc1` (centres undefined): inactive: 97.3%; `CC(=O)Nc1ccc([As](=O)(O)O)c(O)c1`: inactive: -4.88%.
Turning to `CC(=O)Nc1ccc(Oc2c([N+](=O)[O-])cc([N+](=O)[O-])cc2[N+](=O)[O-])cc1`, the activity change, negative = inhibition was inactive: -11.5%.
Next, `Cc1ccccc1CN(C)C(=O)COC(=O)C(O)(c1ccccc1)c1ccccc1`: inactive: 10.4%; `C[C@H]1OP(=O)(Oc2ccccc2)C[C@@H]2O[C@@H]21` (some centres undefined): inactive: -8.48%; `C[C@@H]1C=CCP(=O)(Oc2ccccc2)O1` (some centres undefined): inactive: -7.36%.
Next, `CC(=O)c1ccc(N2CC2c2ccncc2)cc1` (centres undefined): inactive: -10.1%.
Next, `O=[As](O)(c1cccc(O)c1)c1cccc(O)c1`: inactive: -11.2%.
As to `O=C(OC1CN2CCC1CC2)c1ccc(Cl)cc1` (centres undefined), the activity change, negative = inhibition is inactive: -4.97%.
For the compound `O=[As](O)(O)c1cccnc1`, the activity change, negative = inhibition is inactive: -10.8%.
Next, `COc1cc(C(=O)NCC2(N3CCOCC3)CCCCC2)cc(Cl)c1OC(C)C`: inactive: -4.09%.
Next, `CS(=O)(=O)c1ccc(Cl)c(NC(=O)COC(=O)C(O)(c2ccccc2)c2ccccc2)c1`: inactive: 19.2%.
Next, `COc1cc(C2NCCC3(OCCO3)C2(C)C)cc(OC)c1OC` (centres undefined): inactive: -12.9%; `CCOP(=O)(Nc1cccc2ccccc12)OCC`: inactive: -5.21%.
As for `Nc1cccc2c([As](=O)(O)O)cccc12`, the activity change, negative = inhibition is inactive: -0.533%.
Consider `Cc1ccc(NCCc2c([N+](=O)[O-])cc([N+](=O)[O-])cc2[N+](=O)[O-])cc1`, for which the activity change, negative = inhibition was inactive: -51%.
Next, `CCCOP(=S)(Nc1nc(N)cc(=O)[nH]1)OCCC`: inactive: -44.4%; `Nc1ccccc1[As](=O)(O)c1ccccc1`: inactive: -11.1%.
Next, `O=C(O)COc1ccc([As](=O)(O)O)cc1[N+](=O)[O-]`: inactive: -0.794%; `CCOP1(=S)c2c(C)nn(CCC#N)c2N=C(c2ccccc2F)N1C` (centres undefined): inactive: 78.6%; `O=P(Nc1nccs1)(Oc1ccccc1)Oc1ccccc1`: inactive: -33.3%.
Next, `O=P(Nc1nccs1)(c1ccccc1)c1nc2ccccc2s1` (centres undefined): inactive: -13.9%; `CS(=O)(=O)c1cc([N+](=O)[O-])c2no[n+]([O-])c2c1`: inactive: -8.64%.
As to `N#CCCN(C(=O)COC(=O)C(O)(c1ccccc1)c1ccccc1)c1ccc(F)cc1`, the activity change, negative = inhibition was inactive: 81.8%.
Next, `CCOP1(=S)c2c(C)nn(CCC#N)c2N=C(c2ccc(F)cc2)N1C` (centres undefined): inactive: 96.1%; `CN(C(=O)Cc1ccccc1)[C@@H]1CC[C@]2(CCCO2)C[C@H]1N1CCCC1`: inactive: 19.3%.
Next, `O=[N+]([O-])c1ccc2c(c1)nnn2O`: inactive: -0.202%; `NC(=O)Nc1ccc([As](=O)(O)O)cc1`: inactive: -19.1%.
Next, `CN(C)C1(CNC(=O)c2ccc(S(C)(=O)=O)cc2)CCCCC1`: inactive: -8.18%; `O=C(/C=C/c1ccccc1)OC1CN2CCC1CC2` (centres undefined): inactive: -2.31%.
Turning to `Cc1nn(-c2ccccc2)c2c1P(=O)(N1CCOCC1)N(C)C(c1ccccc1)=N2` (centres undefined), the activity change, negative = inhibition is inactive: 55.5%.
